Anti-infective test results gathered from many reports (values: NIAID ChemDB through PubChem).

Common to all: tests in culture; organism: Hepatitis C virus

Neighbouring rows are from separate reports. Two numbers with a dash give a range or band. An empty or dashed field is not shown. ECn is the concentration giving n% inhibition of infection, replication or growth.

SMILES	strain or isolate	read by	cell line	setting	endpoint	value
NS(=O)(=O)c1ccc(CNc2nc(C3CC3)c3nc(-c4cccc(S(N)(=O)=O)c4)ccc3n2)cc1		replicon			EC50	<0.1 µM
COC(=O)c1ccc2c(C3CCCCC3)c3n(c2c1)C[C@@]1(C(=O)N2C4CCC2CN(C)C4)C[C@H]1c1cc(OC)ccc1-3	1b	replicon			EC50	0.001–0.5 µM
COc1ccc(-c2cnc3nc(N)nc(N4CCN(C(=O)Nc5cccc(C)c5)CC4)c3n2)cc1OC	HCV replicon	replicon	Huh7		EC50	<0.3 µM
Cn1c(=O)c2c(ncn2C)n(C)c1=O	JFH-1	luciferase / replicon	Huh7.5		EC50	726 µM
CC1(C)CC(=O)C2=C(C1)Nc1c(O)cccc1NC2c1ccc(C(F)(F)F)cc1	1b	luciferase / reporter gene / replicon			EC50	36.48 µM
CCOc1nc(NCc2ccc(F)cc2)nc2ccc(-c3ccc(NC(=O)CO)cc3)nc12		replicon			EC50	<0.1 µM
CC(C)S(=O)(=O)NC(=O)c1c(-c2ccc[nH]c2=O)c2c3c(c(F)cc2n1Cc1csc(C(N)=O)c1)CCO3		replicon			EC50	<0.5 µM
COCCOc1nc(N)nc2ccc(-c3ccc(C(=O)NOC)cc3)nc12		replicon	Huh7		EC50	0.3–1 µM
COc1ccc2c(c1)C1CC1(C(=O)N1[C@@H]3C[C@H]1CN(S(C)(=O)=O)C3)Cn1c-2c(C2CCCCC2)c2ccc(C(=O)NS(=O)(=O)N(C)C)cc21	1b	replicon			EC50	0.001–0.5 µM
CCOc1nc(NCc2ccc(S(C)(=O)=O)cc2)nc2ccc(-c3ccc(F)cc3)nc12		replicon			EC50	<0.1 µM
COc1ccc(-c2cnc3nc(N)nc(N4CCN(C(=O)Nc5cccc(Cl)c5)CC4)c3n2)cc1OC	HCV replicon	replicon	Huh7		EC50	<0.3 µM
COc1ccc2c(O[C@@H]3C[C@H]4C(=O)N[C@]5(C(=O)O)C[C@H]5/C=C\CCCCC[C@H](NC(=O)OC5CCCC5)C(=O)N4C3)cc(-c3csc(NC(C)C)n3)nc2c1	Genotype 1A	replicon	Huh7		EC50	0.004 µM
NS(=O)(=O)CCNc1nc(NCC(F)(F)F)c2nc(-c3ccc(F)cc3)ccc2n1		replicon			EC50	<0.1 µM
COc1ccc(-c2cnc3nc(N)nc(N4CCN(C(C)c5ccccc5)CC4)c3n2)cc1OC	HCV replicon	replicon	Huh7		EC50	<0.3 µM
CCO[C@H]1C(C)=CN(c2ccc([N+](=O)[O-])cc2)[C@H](c2ccc(Cl)cc2)[C@@H]1C	1b	replicon	Huh7		EC50	4 µM
C[C@H](N)C(=O)Nc1ccc(-c2ccc3nc(NCc4ccc(S(N)(=O)=O)cc4)nc(NCC(F)(F)F)c3n2)cc1		replicon			EC50	<0.1 µM
CCS(=O)(=O)C12CC1c1ccccc1-c1c(C3CCCCC3)c3ccc(C(=O)NS(=O)(=O)N(C)C)cc3n1C2					EC50	0.02–1 µM
Cc1c[nH]c(=O)cc1Cn1c(C(=O)O)c(-c2ccc[nH]c2=O)c2c3occc3c(F)cc21		replicon			EC50	<0.5 µM
COc1c(C(C)(C)C)cc(-c2ccc[nH]c2=O)c2ncc(-c3ccc(NS(C)(=O)=O)cc3)cc12	GT 1a-H77	replicon	Huh7	40% human serum	EC90	0.123 µM
CC1(C)CC(=O)C2=C(C1)Nc1c(O)cccc1N(C(=O)Cc1ccccc1)C2c1ccc(Cl)cc1Cl	1b	luciferase / reporter gene / replicon			EC50	3.33 µM
Fc1ccc(-c2ccc3nc(NCc4ncco4)nc(NCC(F)(F)F)c3n2)cc1		replicon			EC50	<0.1 µM
CC1(C)CC(=O)C2=C(C1)Nc1c(O)cccc1N(C(=O)CCC(=O)NC1CSCC1O)C2c1ccc(OCc2ccccc2)cc1Cl	1b	luciferase / reporter gene / replicon			EC50	43.3 µM
CCc1coc2c1ccc1c2c(-c2ccc[nH]c2=O)c(C(=O)NS(C)(=O)=O)n1Cc1cc(F)ccc1F		replicon			EC50	<0.5 µM
COc1ccc(-c2cnc3nc(N)nc(N4CCN(CC(=O)N5CCOCC5)CC4)c3n2)cc1OC	HCV replicon	replicon	Huh7		EC50	0.3–1 µM
CC1(C)CC(=O)C2=C(C1)Nc1c(O)cccc1N(C(=O)c1ccccn1)C2c1ccc(OCc2ccccc2)cc1Cl	1b	luciferase / reporter gene / replicon			EC50	0.95 µM
Nc1ncc(-c2ccc3nc(NCc4ccc(S(N)(=O)=O)cc4)nc(NCC(F)(F)F)c3n2)cn1		replicon			EC50	<0.1 µM
CC[C@@H](C)Nc1nc(N)nc2ncc(-c3ccc(OC)c(OC)c3)nc12	HCV replicon	replicon	Huh7		EC50	0.3–1 µM
O=C(O)c1c(-c2ccc[nH]c2=O)c2c3ccoc3ccc2n1Cc1ccccc1F		replicon			EC50	>1.5 µM
CCOc1nc(NCc2ccc(S(N)(=O)=O)cc2)nc2ccc(-c3ccc(S(N)(=O)=O)cc3)nc12		replicon			EC50	<0.1 µM
CCOc1nc(NCc2ccc(F)cc2)nc2ncc(-c3ccc(F)cc3)nc12	HCV replicon	replicon	Huh7		EC50	<0.3 µM
CS(=O)(=O)NC(=O)c1c(-c2ccc[nH]c2=O)c2c3c(ccc2n1Cc1ccccc1F)OCCO3		replicon			EC50	<1 µM
COc1ccc(-c2cnc3nc(N)nc(N4CCN(C(=O)Nc5ccc(Br)cc5)CC4)c3n2)cc1OC	HCV replicon	replicon	Huh7		EC50	<0.3 µM
CC(=O)N1c2cccc(O)c2NC2=C(C(=O)CC(C)(C)C2)C1c1ccc(OCc2ccccc2)c(Cl)c1	1b	luciferase / reporter gene / replicon			EC50	2.18 µM
CS(=O)(=O)Nc1ccc2c(c1)S(=O)(=O)N=C(c1c(O)c3ccccc3n(NC3CCC3)c1=O)N2	1b	replicon	Huh7		EC50	0.0007 µM
COc1ccc2c(c1)C1CC1(C(=O)N1[C@@H]3C[C@H]1CN(Cc1ccccc1)C3)Cn1c-2c(C2CCCCC2)c2ccc(C(=O)NS(=O)(=O)N(C)C)cc21	1b	replicon			EC50	0.001–0.5 µM
CCCCc1ccc(C(=O)N2CCN(c3nc(N)nc4ncc(-c5ccc(OC)c(OC)c5)nc34)CC2)cc1	HCV replicon	replicon	Huh7		EC50	<0.3 µM
O=C(O)c1c(-c2ccc[nH]c2=O)c2c3occc3ccc2n1Cc1cc(F)ccc1F		replicon			EC50	<0.5 µM
COc1ccc2c(c1)C1CC1(C(=O)C1C3CCC1CN(C)C3)Cn1c-2c(C2CCCCC2)c2ccc(C(=O)NS(=O)(=O)CC(F)F)cc21	1b	replicon			EC50	0.001–0.5 µM